Measured values from several laboratories, pooled; numbers as filed in NIAID ChemDB.

All rows: growth or infection tests; agent: Measles virus; method: cytopathic effect; endpoint: EC50

Neighbouring rows are from separate reports.

SMILES	cells	strain	result
Nc1ncnc2c1ncn2[C@@H]1C=C[C@@H](O)[C@H]1O	CV-1	Halonen	<0.1 µg/mL
Nc1ncnc2c1ncn2C1CC(CO)[C@@H](O)[C@H]1O	VERO	-	3 µg/mL
CCCc1cc(=O)oc2cc(OC(=O)C(C)(C)C)c3c(c12)OC(C)(C)C=C3	CV-1	SA	0.6 µg/mL
Nc1ncnc2c1ncn2[C@@H]1CC[C@@H](O)[C@H]1O	CV-1	Halonen	<0.1 µg/mL
CC(C)CS[C@@H]1C=C[C@H](n2cnc3c(N)ncnc32)C1	HEL	DAVIS	≥100 µg/mL
CN(C)C(=O)COC(=O)Cc1ccc(OC(=O)c2ccc(N=C(N)N)cc2)cc1.COS(=O)(=O)O	VERO	Sugiyama	>500 µg/mL
Nc1ncnc2c1ncn2[C@@H]1C[C@H](COP(=O)(O)O)[C@@H](O)[C@H]1O	VERO	-	>200 µg/mL
Nc1ncnc2c1ncn2[C@@H]1C[C@H](N)[C@@H](O)[C@H]1O	CV-1	Edmonston	60 µg/mL
C1=CCC2(CC1)COC(c1ccco1)OC2	VERO	Sugiyama	>500 µg/mL
Nc1ccn([C@@H]2C[C@H](CO)[C@@H](O)[C@H]2O)c(=O)n1	VERO	SSPE Niigata-1	0.9 µg/mL
CCCc1cc(=O)oc2c3c(c4c(c12)OC(C)(C)[C@H](O)[C@@H]4O)O[C@H](C)[C@@H](C)[C@@H]3O	CV-1	X-1108	10 µg/mL
Nc1nc(=O)c2ncn([C@@H]3O[C@H](CO)[C@@H](O)[C@H]3O)c2c(=O)[nH]1	CV-1	-	>100 µM
COS(=O)(=O)O.N=C(N)c1ccc2cc(OC(=O)c3ccc(N=C(N)N)cc3)ccc2c1	VERO	Sugiyama	>110 µg/mL
CCCc1cc(=O)oc2cc(OS(=O)(=O)c3ccc(C)cc3)cc(O)c12	CV-1	MO6	0.6 µg/mL
Nc1nc(=O)c2nc(-c3ccccc3)n([C@@H]3O[C@H](CO)[C@@H](O)[C@H]3O)c2c(=O)[nH]1	CV-1	-	10 µM
CCCc1cc(=O)oc2cc(OS(=O)(=O)c3ccc(C)cc3)cc(OS(=O)(=O)c3ccc(C)cc3)c12	CV-1	CC	2 µg/mL
CS[C@H]1C[C@@H](n2cnc3c(N)ncnc32)[C@H](O)[C@@H]1O	CV-1	-	>100 µg/mL

An empty or dashed field is not shown. ECn is the concentration giving n% inhibition of infection, replication or growth.